# Values joined by “and” are separate entries in the source; they are usually repeats but may differ in a detail not shown here. Identical values can stand only once. Like-named read-outs stand apart in the source and are kept apart here.
# B1: Mouse ACE2 (residues 1-615) (receptor)
# chain: QSLTEENAKTFLNNFNQEAEDLSYQSSLASWNYNTNITEENAQKMSEAAAKWSAFYEEQSKTAQSFSLQEIQTPIIKRQLQALQQSGSSALSADKNKQLNTILNTMSTIYSTGKVCNPKNPQECLLLEPGLDEIMATSTDYNSRLWAWEGWRAEVGKQLRPLYEEYVVLKNEMARANNYNDYGDYWRGDYEAEGADGYNYNRNQLIEDVERTFAEIKPLYEHLHAYVRRKLMDTYPSYISPTGCLPAHLLGDMWGRFWTNLYPLTVPFAQKPNIDVTDAMMNQGWDAERIFQEAEKFFVSVGLPHMTQGFWANSMLTEPADGRKVVCHPTAWDLGHGDFRIKMCTKVTMDNFLTAHHEMGHIQYDMAYARQPFLLRNGANEGFHEAVGEIMSLSAATPKHLKSIGLLPSDFQEDSETEINFLLKQALTIVGTLPFTYMLEKWRWMVFRGEIPKEQWMKKWWEMKREIVGVVEPLPHDETYCDPASLFHVSNDYSFIRYYTRTIYQFQFQEALCQAAKYNGSLHKCDISNSTEAGQKLLKMLSLGNSEPWTKALENVVGARNMDVKPLLNYFQPLFDWLKEQNRNSFVGWNTEWSPYAD
# B2: Rat ACE2 (residues 1-615) (receptor)
# chain: QSLIEEKAESFLNKFNQEAEDLSYQSSLASWNYNTNITEENAQKMNEAAAKWSAFYEEQSKIAQNFSLQEIQNATIKRQLKALQQSGSSALSPDKNKQLNTILNTMSTIYSTGKVCNSMNPQECFLLEPGLDEIMATSTDYNRRLWAWEGWRAEVGKQLRPLYEEYVVLKNEMARANNYEDYGDYWRGDYEAEGVEGYNYNRNQLIEDVENTFKEIKPLYEQLHAYVRTKLMEVYPSYISPTGCLPAHLLGDMWGRFWTNLYPLTTPFLQKPNIDVTDAMVNQSWDAERIFKEAEKFFVSVGLPQMTPGFWTNSMLTEPGDDRKVVCHPTAWDLGHGDFRIKMCTKVTMDNFLTAHHEMGHIQYDMAYAKQPFLLRNGANEGFHEAVGEIMSLSAATPKHLKSIGLLPSNFQEDNETEINFLLKQALTIVGTLPFTYMLEKWRWMVFQDKIPREQWTKKWWEMKREIVGVVEPLPHDETYCDPASLFHVSNDYSFIRYYTRTIYQFQFQEALCQAAKHDGPLHKCDISNSTEAGQKLLNMLSLGNSGPWTLALENVVGSRNMDVKPLLNYFQPLFVWLKEQNRNSTVGWSTDWSPYAD
# Columns and labels:
# Assay in all cases: SPR
# [1] = target: T1, SARS-CoV-2 Omicron BA.2 RBD (residues 319-541) (SARS-CoV-2, UniProt P0DTC2 319-541)
# [2] = target: SARS-CoV-2 Omicron BA.1 RBD (residues 319-541) (SARS-CoV-2, UniProt P0DTC2 319-541)
# [3] = target: T1, SARS-CoV-2 Omicron BA.2 RBD (residues …); remark: listed apart in the source
# [4] = target: SARS-CoV-2 Omicron BA.4/5 RBD (residues 319-541) (SARS-CoV-2, UniProt P0DTC2 319-541)
Binder,Kd [1],koff [1],kon [1],Kd [2],koff [2],kon [2],Kd [3],koff [3],kon [3],Kd [4],koff [4],kon [4]
B1,0.0095 µM and 0.0171 µM and 0.0132 µM and 0.0133 µM,0.045 s⁻¹ and 0.055 s⁻¹ and 0.044 s⁻¹,2.5e+06 M⁻¹ s⁻¹ and 2.2e+06 M⁻¹ s⁻¹ and 2.4e+06 M⁻¹ s⁻¹,,,,,,,,,
B2,,,,3.46 µM and 3.37 µM and 3.42 µM and 3.41 µM,0.11 s⁻¹,30000 M⁻¹ s⁻¹ and 31000 M⁻¹ s⁻¹ and 32000 M⁻¹ s⁻¹,1.89 µM and 2.05 µM and 2.17 µM and 2.04 µM,0.0099 s⁻¹ and 0.0081 s⁻¹,5700 M⁻¹ s⁻¹ and 6500 M⁻¹ s⁻¹ and 5500 M⁻¹ s⁻¹,1.06 µM and 1.01 µM and 1 µM and 1.02 µM,0.021 s⁻¹ and 0.028 s⁻¹ and 0.032 s⁻¹,21000 M⁻¹ s⁻¹ and 20000 M⁻¹ s⁻¹ and 39000 M⁻¹ s⁻¹
